Compound potency records, mixed from different reports. Data source: NIAID ChemDB in PubChem.

All rows: growth or infection tests; agent: Mycobacterium aurum; endpoint: MIC

Lines come from different laboratories, so protocols vary. Blank or dashed fields: not listed here.

structure,mutations,method,strain,value
CC(=O)O[C@@H]1[C@@H](O)C2=C(C(=O)OC2)[C@@]2(C)CCCC(C)(C)[C@H]12,,,,>128 µg/mL
CC1CN(c2cc3c(cc2F)c(=O)c(C(=O)O)cn3C(C)(C)C)CCN1,,,ATCC23366,0.06 µg/mL
Cn1c2c3ccccc3nc-2cc2ccccc21,,,,2 µg/mL
NNC(=O)c1ccncc1,,,A+ (INH-S),1 µg/mL
CC[C@@H](C(=O)[C@@H](C)[C@@H](O)[C@H](C)[C@@H]1O[C@@H]([C@@H](CC)C(=O)O)CC[C@@H]1C)[C@H]1O[C@@]2(C=C[C@@H](O)[C@@]3(CC[C@@](C)([C@H]4CC[C@](O)(CC)[C@H](C)O4)O3)O2)[C@H](C)C[C@@H]1C,T125 insertion,resazurin,,0.08 µg/mL
CCCCC/C=C\C/C=C\CCCCCCCC(=O)O,,,,4 µg/mL
CC1CN(c2c(F)cc3c(=O)c(C(=O)O)cn(C4CC4)c3c2Br)CCN1,,,ATCC23366,0.06 µg/mL
CO[C@@H]1C[C@@H](C[C@H]2CC[C@H](C)[C@H]([C@@H](C)C(=O)O)O2)O[C@]2(O[C@](C)([C@H]3CC[C@@](C)([C@@H]4O[C@@H]([C@H]5O[C@@](O)(CO)[C@H](C)C[C@@H]5C)C[C@@H]4C)O3)C[C@H]2C)[C@@H]1C,C330 deletion,resazurin,,0.32 µg/mL
C[C@@H]1CN(c2cc3c(cc2F)c(=O)c(C(=O)O)cn3C(C)(C)C)C[C@H](C)N1,,,ATCC23366,0.06 µg/mL
C=C1[C@@H](C)CC[C@@]2(C)[C@H]1CC=C1C(=O)O[C@@H](O)[C@@]12O,,,,>128 µg/mL
C[C@H]1COC2(CCN(c3nc(=O)c4cc(C(F)(F)F)cc([N+](=O)[O-])c4s3)CC2)O1,,broth dilution / turbidity,SB66,>200 µg/mL
CO[C@H]1/C=C/O[C@@]2(C)Oc3c(C)c(O)c4c(O)c(c(/C=N/N5CCN(C)CC5)c(O)c4c3C2=O)NC(=O)/C(C)=C\C=C\[C@H](C)[C@H](O)[C@@H](C)[C@@H](O)[C@@H](C)[C@H](OC(C)=O)[C@@H]1C,,,A+,2 µg/mL
CC1CN(c2nc3c(cc2F)c(=O)c(C(=O)O)cn3C(C)(C)C)CCN1,,,ATCC23366,0.06 µg/mL
C=C1C2CC[C@H](C=O)C(O)(C=O)[C@@]2(C)CC[C@@H]1C,,,,32 µg/mL

Repeating the final 2 entries:

structure	mutations	method	strain	value
CC1CN(c2nc3c(cc2F)c(=O)c(C(=O)O)cn3C(C)(C)C)CCN1			ATCC23366	0.06 µg/mL
C=C1C2CC[C@H](C=O)C(O)(C=O)[C@@]2(C)CC[C@@H]1C				32 µg/mL